What was measured:
[1] = target: Replicase polyprotein 1ab (Middle East respiratory syndrome-related coronavirus (isolate UnitedKingdom/H123990006/2012) (Betacoronavirus England 1) (Humancoronavirus EMC)) (UniProt K9N7C7); assay: Binding affinity to MERS-CoV papain-like protease assessed as dissociation rate constant by SPR analysis
[2] = target: Replicase polyprotein 1ab (Middle East respiratory syndrome-related coronavirus (isolate UnitedKingdom/H123990006/2012) (Betacoronavirus England 1) (Humancoronavirus EMC)) (UniProt K9N7C7); assay: Binding affinity to MERS-CoV papain-like protease assessed as association rate constant by SPR analysis

**Q.** How did the Kdiss [1] turn out when `Cc1cc(C)n(S(=O)(=O)c2ccc(N)cc2)c(=O)n1` was run?
**A.** The Kdiss was 3 ×10⁻² /s.

**Q.** And the Ka [2]?
**A.** Its Ka is 3.2 ×10³ /M/s.

**Q.** How did the Kdiss [1] turn out when `O=Cc1ccc(O)c(O)c1` [PROTOCATECHUALDEHYDE] was run?
**A.** Its Kdiss is 4.18 ×10⁻² /s.

**Q.** And the Ka [2]?
**A.** The Ka was 1.88 ×10² /M/s.

Reference: ChEMBL document CHEMBL4392846, “Identification and design of novel small molecule inhibitors against MERS-CoV papain-like protease via high-throughput screening and molecular modeling” (Bioorg Med Chem, 2019)
